Like-named read-outs stand apart in the source and are kept apart here.
Target: NA (neuraminidase) of A/Denmark/524/09 (H1N1) (Influenza A virus (A/California/04/2009(H1N1)), UniProt C3W5S3)
Settings: substrate MUNANA, mean ± SD of five measurements

Row | SMILES | IC50 (read-out: NA enzyme inhibition IC50 ±SD ^b (nM) / Zanamivir) [nM] | IC50 (read-out: NA enzyme inhibition IC50 ±SD ^b (nM) / Oseltamivir carboxylate) [nM]
1 | CC(=O)N[C@H]1[C@H]([C@H](O)[C@H](O)CO)OC(C(=O)O)=C[C@@H]1N=C(N)N [zanamivir, 4-guanidino-Neu5Ac2en] | 1.3 ± 0.15 | 
2 | CCC(CC)O[C@@H]1C=C(C(=O)O)C[C@H](N)[C@H]1NC(C)=O [oseltamivir carboxylate, [3R, 4R, 5S]-4-acetamido-5-amino-3-[1-ethylpropoxy]-1-cyclohexene-1-carboxylic acid] |  | 5 ± 0.8
